PubChem BioAssay AID1259414, Drosophila RNAi Screening Center – 2018
Screen: 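Fly genes that alter Wolbachia amount inside host cells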 (primary screen). Cells: Drosophila JW18 cells infected with Wolbachia. Reagents: long dsRNA against Drosophila genes, 0.25 µg dsRNA per well of a 384-well plate. Time to read-out: 5 days. Treatment: cells persistently infected with Wolbachia before knock-down; no added drug. Measured: 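Automated imaging of bacterial rRNA staining divided by host cell count, reported as plate-normalised robust z-score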. Reading the numbers: Wolbachia per cell robust z: higher = more Wolbachia per host cell than the plate typical. Rule for the call: 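Active if absolute robust z reaches 1.5 in two or more of three replicates, leaving out multi- or no-target dsRNAs, genes unexpressed in JW18 and A1 wells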.
The deposit covers about 24,000 reagents; below is a random part of those that have a named target and a result. In the full data, about 1,210 (5%) were called active. 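Inactive calls also include excluded dsRNAs with several or no targets, genes unexpressed in JW18, and well A1, regardless of score.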 Unmarked entries are inactive. Names joined by + are all predicted targets of the reagent.

PAN2 [DRSC07115]
- Wolbachia per cell robust z, rep 1: 0.0619
- Wolbachia per cell robust z, rep 2: 0.377
- Wolbachia per cell robust z, rep 3: 1.3

Gr58c [DRSC04136]
- Wolbachia per cell robust z, rep 1: -4.64
- Wolbachia per cell robust z, rep 2: 1.13
- Wolbachia per cell robust z, rep 3: -0.0471

Dhc1 [DRSC16503]
- Wolbachia per cell robust z, rep 1: -3.51
- Wolbachia per cell robust z, rep 2: 0.232
- Wolbachia per cell robust z, rep 3: -0.51

CG14929 + CG14930 [DRSC02412]
- Wolbachia per cell robust z, rep 1: 1.32
- Wolbachia per cell robust z, rep 2: -0.266
- Wolbachia per cell robust z, rep 3: -0.0172

Pex23 [DRSC10323]
- Wolbachia per cell robust z, rep 1: -1.06
- Wolbachia per cell robust z, rep 2: -5.96
- Wolbachia per cell robust z, rep 3: -0.744

Pex23 [DRSC10645]
- Wolbachia per cell robust z, rep 1: 0.258
- Wolbachia per cell robust z, rep 2: 0.328
- Wolbachia per cell robust z, rep 3: -0.119

Pex23 [DRSC28370]
- Wolbachia per cell robust z, rep 1: 0.0743
- Wolbachia per cell robust z, rep 2: -1.67
- Wolbachia per cell robust z, rep 3: -0.363

CG44014 + CG44013 [DRSC14995]
- Wolbachia per cell robust z, rep 1: -0.431
- Wolbachia per cell robust z, rep 2: -0.337
- Wolbachia per cell robust z, rep 3: -0.443

CG10035 [DRSC14177]
- Wolbachia per cell robust z, rep 1: -0.118
- Wolbachia per cell robust z, rep 2: 0.178
- Wolbachia per cell robust z, rep 3: -5.13

CG10035 [DRSC28663]
- Wolbachia per cell robust z, rep 1: -1.27
- Wolbachia per cell robust z, rep 2: -0.763
- Wolbachia per cell robust z, rep 3: -0.701

CG18268 + CG3014 [DRSC15319]
- Wolbachia per cell robust z, rep 1: 0.419
- Wolbachia per cell robust z, rep 2: -1.37
- Wolbachia per cell robust z, rep 3: -4.65

CG5103 [DRSC10481]
- Wolbachia per cell robust z, rep 1: -1.3
- Wolbachia per cell robust z, rep 2: 0.417
- Wolbachia per cell robust z, rep 3: -0.504

Cth [DRSC07422]
- Wolbachia per cell robust z, rep 1: -1.09
- Wolbachia per cell robust z, rep 2: 0.373
- Wolbachia per cell robust z, rep 3: -0.146

borr [DRSC41287]
- Wolbachia per cell robust z, rep 1: 1.28
- Wolbachia per cell robust z, rep 2: 0.91
- Wolbachia per cell robust z, rep 3: -0.302

The list goes on; the last 2 above are carried over.
Cth [DRSC07422]
- Wolbachia per cell robust z, rep 1: -1.09
- Wolbachia per cell robust z, rep 2: 0.373
- Wolbachia per cell robust z, rep 3: -0.146

borr [DRSC41287]
- Wolbachia per cell robust z, rep 1: 1.28
- Wolbachia per cell robust z, rep 2: 0.91
- Wolbachia per cell robust z, rep 3: -0.302

CG43658 [DRSC19455]
- Wolbachia per cell robust z, rep 1: 0.165
- Wolbachia per cell robust z, rep 2: 0.0784
- Wolbachia per cell robust z, rep 3: -1.62

CG43658 [DRSC20111]
- Wolbachia per cell robust z, rep 1: -0.218
- Wolbachia per cell robust z, rep 2: 0.0683
- Wolbachia per cell robust z, rep 3: -0.757

CG43658 [DRSC25232]
- Wolbachia per cell robust z, rep 1: -7.09 (active)
- Wolbachia per cell robust z, rep 2: -1.52
- Wolbachia per cell robust z, rep 3: -0.303

CG43658 [DRSC25445]
- Wolbachia per cell robust z, rep 1: -0.352
- Wolbachia per cell robust z, rep 2: -0.997
- Wolbachia per cell robust z, rep 3: -0.193

CG14111 [DRSC10114]
- Wolbachia per cell robust z, rep 1: -1.18
- Wolbachia per cell robust z, rep 2: 0.991
- Wolbachia per cell robust z, rep 3: 0.377

CG14111 [DRSC27551]
- Wolbachia per cell robust z, rep 1: 0.652
- Wolbachia per cell robust z, rep 2: 0.0949
- Wolbachia per cell robust z, rep 3: -1.04

14-3-3zeta [DRSC05028]
- Wolbachia per cell robust z, rep 1: -1.03
- Wolbachia per cell robust z, rep 2: -0.66
- Wolbachia per cell robust z, rep 3: 0.128

14-3-3zeta [DRSC27525]
- Wolbachia per cell robust z, rep 1: 0.477
- Wolbachia per cell robust z, rep 2: 0.725
- Wolbachia per cell robust z, rep 3: 1.06

14-3-3zeta [DRSC40722]
- Wolbachia per cell robust z, rep 1: -0.364
- Wolbachia per cell robust z, rep 2: -0.314
- Wolbachia per cell robust z, rep 3: -2.47

CG9988 [DRSC16587]
- Wolbachia per cell robust z, rep 1: 0.111
- Wolbachia per cell robust z, rep 2: -4.53
- Wolbachia per cell robust z, rep 3: -4.96

Saf-B [DRSC16167]
- Wolbachia per cell robust z, rep 1: -0.837
- Wolbachia per cell robust z, rep 2: 0.126
- Wolbachia per cell robust z, rep 3: -0.436

Saf-B [DRSC28393]
- Wolbachia per cell robust z, rep 1: -2.4 (active)
- Wolbachia per cell robust z, rep 2: -2.53
- Wolbachia per cell robust z, rep 3: -5.48

Dek [DRSC07418]
- Wolbachia per cell robust z, rep 1: 0.749
- Wolbachia per cell robust z, rep 2: -0.149
- Wolbachia per cell robust z, rep 3: 0.723

Dek [DRSC23928]
- Wolbachia per cell robust z, rep 1: 1.28
- Wolbachia per cell robust z, rep 2: 1.26
- Wolbachia per cell robust z, rep 3: 2.23

CG17359 [DRSC10265]
- Wolbachia per cell robust z, rep 1: -0.0128
- Wolbachia per cell robust z, rep 2: 0.119
- Wolbachia per cell robust z, rep 3: -0.663

CG17359 [DRSC24439]
- Wolbachia per cell robust z, rep 1: -1.34
- Wolbachia per cell robust z, rep 2: 0.188
- Wolbachia per cell robust z, rep 3: -0.449
